Consider 26 compounds from patent publication US11344554B2, “Animal and human anti-malarial agents” (Celgene Corporation, priority 2016, dated 2022).

pIC50: −log10 of the molar value.

A word on the pIC50: it is −log10 of the IC50, conventionally taken in molar units.

The test system of the assay is Plasmodium falciparum. Put plainly: Plasmodium falciparum in vitro [3H]-hypoxanthine parasite growth inhibition assay. The assay is classed as cell-based. The conditions noted are these: read-out: Act Class (IC50 activity level); P. falciparum asexual blood stage parasites in human erythrocytes, [3H]-hypoxanthine uptake.
On to `CC(C)(C)Nc1ncc2nc(Nc3cc(Cl)cc(C(F)(F)F)c3)n(CCN)c2n1`, for which the negative-log IC50 (pIC50) is 5.92 to 6.30.
With `CC1(Nc2ncc3nc(Nc4cc(Cl)cc(C(F)(F)F)c4)n(C4CCNC4)c3n2)CCCC1` (centres unmarked) the figure was 6.70 to 7.00; with “9-(2-amino-2-methylpropyl)-N2-tert-butyl-N8-(3-chloro-5-(trifluoromethyl)phenyl)-9H-purine-2,8-diamine”, 5.92 to 6.30.
With `CC(N)Cn1c(Nc2cc(Cl)cc(C(F)(F)F)c2)nc2cnc(NC(C)(C)C)nc21` (centres unmarked) the figure was 5.92 to 6.30; with `CC1(Nc2ncc3nc(Nc4cc(Cl)cc(C(F)(F)F)c4)n(C4CCNC4)c3n2)CC1` (centres unmarked), 6.70 to 7.00.
On to `CC(C)(C)Nc1ncc2nc(Nc3cc(Cl)cc(Cl)c3)n(C3CCNC3)c2n1` (centres unmarked), for which the pIC50 is 6.70 to 7.00.
Under `CC(C)(C)Nc1ncc2nc(Nc3ccc(Cl)cc3)n(C3CCNC3)c2n1` (centres unmarked) stands 5.92 to 6.30.
As to `CC(C)Nc1ncc2nc(Nc3cc(F)cc(Cl)c3)n(C3CCNC3)c2n1` (centres unmarked), the negative logarithm of the IC50 (pIC50) was 5.92 to 6.30.
Under `FC(F)(F)c1cc(Cl)cc(Nc2nc3cnc(NC4CCC4)nc3n2[C@H]2CCNC2)c1` stands 6.70 to 7.00.
With `CC(C)(C)Nc1ncc2nc(Nc3ccc(Cl)c(Cl)c3)n(C3CCNC3)c2n1` (centres unmarked) the figure was 6.70 to 7.00.
With `FC(F)(F)c1cc(Cl)cc(Nc2nc3cnc(NC4CCC4)nc3n2C2CCNC2)c1` (centres unmarked) the figure was 6.30 to 6.70.
`CC(C)(C)Nc1ncc2nc(Nc3cccc(C(F)(F)F)c3)n(CCN3CCCC3)c2n1`: the pIC50 was 5.92 to 6.30.
On to `CC(C)(C)Nc1ncc2nc(Nc3cc(Cl)cc(C(F)(F)F)c3)n([C@H]3CCNC3)c2n1`, for which the negative-log IC50 (pIC50) is 6.70 to 7.00.
As for `CC(C)(C)Nc1ncc2nc(Nc3cc(Cl)cc(C(F)(F)F)c3)n(C3CCNC3)c2n1` (centres unmarked), the negative logarithm of the IC50 (pIC50) is over 7.00.
Under `CC(C)Nc1ncc2nc(Nc3cc(Cl)cc(C(F)(F)F)c3)n(C3CCNC3)c2n1` (centres unmarked) stands 6.30 to 6.70.
Turning to `CNCCn1c(Nc2cc(Cl)cc(C(F)(F)F)c2)nc2cnc(NC3CCCC3)nc21`, the pIC50 is 6.30 to 6.70.
With `CC(C)(C)Nc1ncc2nc(Nc3cc(Cl)cc(C(F)(F)F)c3)n(C3CNC3)c2n1` the figure was 6.30 to 6.70; with `N#Cc1cc(Cl)cc(Nc2nc3cnc(NC4CCCC4)nc3n2C2CCNC2)c1` (centres unmarked), 5.92 to 6.30.
With `CC(C)Nc1ncc2nc(Nc3cc(Cl)cc(C#N)c3)n(C3CCNC3)c2n1` (centres unmarked) the figure was 6.30 to 6.70; with `CC(C)(C)Nc1ncc2nc(Nc3ccc(C(F)(F)F)cc3)n(C3CCNC3)c2n1` (centres unmarked), 6.30 to 6.70; with `CNCCn1c(Nc2cc(Cl)cc(C(F)(F)F)c2)nc2cnc(NC(C)(C)C)nc21`, 5.92 to 6.30.
With `FC(F)(F)c1cc(Cl)cc(Nc2nc3cnc(NC4CCC4)nc3n2[C@@H]2CCNC2)c1` the figure was 6.30 to 6.70.
Take `NCCn1c(Nc2cc(Cl)cc(C(F)(F)F)c2)nc2cnc(NC3CCCC3)nc21`: the negative-log IC50 (pIC50) was 5.92 to 6.30.
As to `CC(C)(N)Cn1c(Nc2cc(Cl)cc(C(F)(F)F)c2)nc2cnc(NC3CCCC3)nc21`, the pIC50 was 6.30 to 6.70.
With `CC(N)Cn1c(Nc2cc(Cl)cc(C(F)(F)F)c2)nc2cnc(NC3CCCC3)nc21` (centres unmarked) the figure was 6.30 to 6.70; with `CC(C)(C)Nc1ncc2nc(Nc3cccc(C(F)(F)F)c3)n(C3CCNC3)c2n1` (centres unmarked), 6.70 to 7.00.
